PubChem BioAssay AID504761 | Drosophila RNAi Screening Center – 2011
Test: 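Insect host genes that dengue virus relies on to spread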 (primary screen). System: D.Mel-2 cells from Drosophila. Reagent: long dsRNA against Drosophila genes. Challenge: infection with dengue virus type 2; dose and infection time not stated. Detection: 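Per well on two replicate plates, imaging gave the percent of cells positive for viral envelope protein, ranked by infection, and a nuclear count of cells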. Direction: infection score: higher = more virus-infected cells; cell count: higher = more cells in the well. Rule for the call: 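Very low infection ranking in both replicate wells (chance probability at most 0.065), then a retest showing infection dropped 1.5-fold or more at p below 0.05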. Meaning of the calls: active = confirmed: knock-down lowers infection; inactive = not picked or not confirmed.
The deposit covers about 22,000 reagents; below is a random part of those with a known target gene and a result. In the full data, 116 (0.52%) got an active call. 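Calls depend on retest data that are not deposited; infection was ranked per plate without normalising between plates; the unit of the infection score is not given.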 The raw values are shown without normalisation. The numbers tell different reagents against one gene apart. Further read-outs or replicates are left out here. Not given: the amount of reagent, the time to read-out.

Mtr4 (Mtr4 helicase) → infection score, replicate 1 = 26.6; cell count, replicate 1 = 4757; Call = inactive
Vps11 (Vacuolar protein sorting 11) #1 → infection score, replicate 1 = 0.79; cell count, replicate 1 = 5923; Call = inactive
Vps11 (Vacuolar protein sorting 11) #2 → infection score, replicate 1 = 2.75; cell count, replicate 1 = 6027; Call = inactive
CG9287 #1 → infection score, replicate 1 = 2.74; cell count, replicate 1 = 6346; Call = inactive
CG9287 #2 → infection score, replicate 1 = 1.86; cell count, replicate 1 = 5689; Call = inactive
nSMase (neutral sphingomyelinase) → infection score, replicate 1 = 3.65; cell count, replicate 1 = 6678; Call = inactive
CG7903 #1 → infection score, replicate 1 = 2.41; cell count, replicate 1 = 6546; Call = inactive
CG7903 #2 → infection score, replicate 1 = 4; cell count, replicate 1 = 6770; Call = inactive

Entries listed so far whose target name begins with V or v:
Vps11 (Vacuolar protein sorting 11) #1 → infection score, replicate 1 = 0.79; cell count, replicate 1 = 5923; Call = inactive
Vps11 (Vacuolar protein sorting 11) #2 → infection score, replicate 1 = 2.75; cell count, replicate 1 = 6027; Call = inactive

The list goes on:
pyd (polychaetoid) #1 → infection score, replicate 1 = 6.37; cell count, replicate 1 = 6265; Call = inactive
pyd (polychaetoid) #2 → infection score, replicate 1 = 1.15; cell count, replicate 1 = 6503; Call = inactive
pyd (polychaetoid) #3 → infection score, replicate 1 = 9.16; cell count, replicate 1 = 5995; Call = inactive
pyd (polychaetoid) #4 → infection score, replicate 1 = 20.2; cell count, replicate 1 = 4086; Call = inactive
pyd (polychaetoid) #5 → infection score, replicate 1 = 10.4; cell count, replicate 1 = 5681; Call = inactive
pyd (polychaetoid) #6 → infection score, replicate 1 = 1.18; cell count, replicate 1 = 6084; Call = inactive
pyd (polychaetoid) #7 → infection score, replicate 1 = 4.7; cell count, replicate 1 = 6168; Call = inactive
S-Lap4 (Sperm-Leucylaminopeptidase 4) #1 → infection score, replicate 1 = 2.36; cell count, replicate 1 = 6058; Call = inactive
S-Lap4 (Sperm-Leucylaminopeptidase 4) #2 → infection score, replicate 1 = 3.6; cell count, replicate 1 = 6560; Call = inactive
Pus7 (Pseudouridine synthase 7) #1 → infection score, replicate 1 = 2.51; cell count, replicate 1 = 6665; Call = inactive
Pus7 (Pseudouridine synthase 7) #2 → infection score, replicate 1 = 10.9; cell count, replicate 1 = 5832; Call = inactive
CG16965 → infection score, replicate 1 = 4.48; cell count, replicate 1 = 6802; Call = inactive
CG10914 → infection score, replicate 1 = 3.12; cell count, replicate 1 = 6800; Call = inactive
